{
  "source": "patent US20040219545",
  "tested_on": "Tat47-58 peptide (HIV-1)",
  "assay": "EMSA",
  "details": "peptide 0.1-1.6 uM, purified recombinant protein",
  "data": [
    {"sequence": "GGCGUCACACCUUCGGGUGAAGUCGCC", "values": [
      {"measurement": "binding result", "setting": "gel retardation by automated capillary electrophoresis, TK buffer with 0.5 mM MgCl2, printed TAR sequence identical to the 16S A site oligo, label: 5' fluorescein", "result": "binds"}
    ]},
    {"sequence": "GGCGUCACACCUUCGGGUGAAGUCGCC [HIV-1 TAR element RNA oligonucleotide]", "values": [
      {"measurement": "binding result", "setting": "TK buffer: 50 mM Tris-HCl pH 7.4, 20 mM KCl, 0.1% Triton X-100, 0.5 mM MgCl2, 12% native gel at 4 C, label: 5' fluorescein and 3' 32P-cytidine bisphosphate", "result": "binds"}
    ]}
  ]
}
